This is an account of results in patent US8980848B2, “Flavonoid dimers and their use” (The Hong Kong Polytechnic University, priority 2010, dated 2015).

The test system of data set [1] is Ld39 promastigotes (SSG-resistant). The data set is described as follows: In vitro anti-promastigote activity, Ld39. The note with it: IC50 against PEM/IC50 against promastigotes. It is filed as cell-based, Leishmania donovani. As for the experimental part:
(§1) Cell Lines and Cell Culture. Promastigotes of Leishmania donovani (wild type LdAG83, pentamidine-resistant LdAG83-PentR50, and SSG-resistant Ld39) and Leishmania major [MHOM/IL/67/JERICHO II (Lm50122), from ATCC] were used in this study.
(§2) In Vitro Anti-Promastigote Activity. The viability of promastigotes was determined by the Cell Titer 96° Aqueous Assay (Promega) that employs a tetrazolium compound (MTS, 2-(4,5-Dimethylthiazol-2-yl-)-5-[3-(carboxymethoxy)phenyl]-2-(4-sulfophenyl)-2H-tetrazolium) and electron coupling reagent, phenazine methosulfate (PMS).^7 Promastigotes were seeded into 96-well flat bottom microtiter plate at 1×10^5 cells per well in a final volume of 100 μL medium and incubated with a series concentration of synthetic flavonoid dimers or known antileishmanials. The parasites were incubated at 27° C. for 72 hrs. Fresh solution of 2 mg/mL MTS and 0.92 mg/mL PMS were prepared in a ratio of 20:1 (MTS:PMS). After 72 hrs incubation, 10 μL of MTS:PMS mixture was added into each well of microtiter plate. The plate was then incubated at 27° C. for 4 hrs for color development. After 4 hrs incubation, the OD values were determined at 490 nm using automatic microtiter plate reader (Bio-Rad).

For data set [2], the system named is LdAG83PentR50 promastigotes (pentamidine-resistant). The format is cell-based, Leishmania donovani. The note with it: IC50 against PEM/IC50 against promastigotes. Here is the method:
as §1
No pentamidine or sodium stibogluconate was added to the L. donovani wild type (LdAG83) and L. major wild type (Lm50122). The mouse macrophage cell line, Raw264.7, was used for the determination of the relative toxicity of the compounds of the invention. […] They were maintained at 37° C. in a humidified atmosphere with 5% CO2. The cells were split constantly after a confluent monolayer has been formed. To split cells, the plate was washed briefly with PBS, treated with 0.05% trypsin-EDTA and harvested by centrifugation.
as §2

Data set [3] relates to Ld39 amastigotes. Briefly: In vitro anti-amastigote activity, Ld39 amastigotes in mouse PEM.
Data set [4] relates to Lm50122 promastigotes. The data set is described as follows: In vitro anti-promastigote activity, Lm50122. The format is cell-based, Leishmania major. The note with it: IC50 against PEM/IC50 against promastigotes. As for the experimental part:
as §1, §2

Data set [5] deals with LdAG83 promastigotes (wild type). The data set is described as follows: In vitro anti-promastigote activity, LdAG83. It is filed as cell-based, Leishmania donovani. As to conditions: IC50 against PEM/IC50 against promastigotes. As for the experimental part:
as §1, §2

In the case of `O=c1c(O)c(-c2ccc(O)c(O)c2)oc2cc(O)cc(O)c12` [Quercetin, quercetin], in data set [1], the “Therapeutic index relative to PEM, Ld39” value is on record as >1.0. Further, the “Therapeutic index relative to PEM, LdAG83PentR50” value in data set [2] is on record as >1.4. The “Therapeutic index relative to PEM” value in data set [3] is >16.7. Also, the “Therapeutic index relative to PEM, Lm50122” value in data set [4] is reported as >1.0. Moreover, the “Therapeutic index relative to PEM, LdAG83” value in data set [5] is on record as >1.0.

As for `O.O.O.O.O.O.O.O.O.O=C([O-])[C@@H]1[O][Sb]2([O-])([O][Sb]34([OH])[O][C@H]([C@H](O)CO)[C@H]([O]3)[C@H](C(=O)[O-])[O]4)[O][C@H]([C@H](O)CO)[C@@H]1[O]2.[Na+].[Na+].[Na+]` [Sodium stibogluconate, sodium stibogluconate, reference compound], the “Therapeutic index relative to PEM” value in data set [3] was >16.3.

For the compound `O=c1cc(-c2ccc(O)c(O)c2)oc2cc(O)cc(O)c12` [Luteolin, luteolin], the “Therapeutic index relative to PEM, Ld39” value in data set [1] amounted to 0.9. Also, in data set [2], the “Therapeutic index relative to PEM, LdAG83PentR50” value stood at 0.9. Also, the “Therapeutic index relative to PEM” value in data set [3] was found to be 10.1. For the same compound, the “Therapeutic index relative to PEM, Lm50122” value in data set [4] stood at 0.8. Further, the “Therapeutic index relative to PEM, LdAG83” value in data set [5] amounted to 0.7.

`NC[C@@H]1O[C@H](O[C@H]2[C@@H](O)[C@H](O[C@@H]3[C@@H](O)[C@H](N)C[C@H](N)[C@H]3O[C@H]3O[C@H](CO)[C@@H](O)[C@H](O)[C@H]3N)O[C@@H]2CO)[C@H](N)[C@@H](O)[C@@H]1O` [Paromomycin, paromomycin]: in data set [1], the “Therapeutic index relative to PEM, Ld39” value is >4.1. Moreover, in data set [2], the “Therapeutic index relative to PEM, LdAG83PentR50” value is >1.2. Further, the “Therapeutic index relative to PEM” value in data set [3] was >2.4. Further, the “Therapeutic index relative to PEM, Lm50122” value in data set [4] is listed as >1.1. Moreover, in data set [5], the “Therapeutic index relative to PEM, LdAG83” value was >1.6.

For the compound `N=C(N)c1ccc(OCCCCCOc2ccc(C(=N)N)cc2)cc1` [Pentamidine], the “Therapeutic index relative to PEM, Ld39” value in data set [1] was 5.7. Also, the “Therapeutic index relative to PEM, LdAG83PentR50” value in data set [2] is listed as 0.4. Further, the “Therapeutic index relative to PEM” value in data set [3] was >1.0. Further, in data set [4], the “Therapeutic index relative to PEM, Lm50122” value is 3.9. The “Therapeutic index relative to PEM, LdAG83” value in data set [5] is recorded as 1.9.

As for `O=c1cc(-c2ccc(OCCOCCN(CCOCCOc3ccc(-c4cc(=O)c5ccccc5o4)cc3)Cc3ccncc3)cc2)oc2ccccc12` [Compound 21, 1,13-Bis[4′-(4H-chromen-4-on-2-yl)phenyl]-N-(4-pyridylmethyl)-1,4,10,13-tetraoxa-7-azamidecane], the “Therapeutic index relative to PEM, LdAG83PentR50” value in data set [2] is >676.9. Moreover, the “Therapeutic index relative to PEM” value in data set [3] is >139.7.

With `C[C@@H]1[C@H](O)[C@@H](C)/C=C/C=C/C=C/C=C/C=C/C=C/C=C/[C@H](O[C@@H]2O[C@H](C)[C@@H](O)[C@H](N)[C@@H]2O)C[C@@H]2O[C@](O)(C[C@@H](O)C[C@@H](O)[C@H](O)CC[C@@H](O)C[C@@H](O)CC(=O)O[C@H]1C)C[C@H](O)[C@H]2C(=O)O` [Amphotericin B, amphotericin B], the “Therapeutic index relative to PEM, Ld39” value in data set [1] stood at 77.9. Besides, the “Therapeutic index relative to PEM, LdAG83PentR50” value in data set [2] came out at 145.1. Further, the “Therapeutic index relative to PEM” value in data set [3] came to 119.4. For the same compound, the “Therapeutic index relative to PEM, Lm50122” value in data set [4] is on record as 21.8. In addition, the “Therapeutic index relative to PEM, LdAG83” value in data set [5] was found to be 82.2.
